# Measured values from patent US9549941B2, “Compositions and methods for treating hepatitis C virus” (priority 2011, dated 2017).
# System: 1b con-1-based chimeric replicon containing 5a NS5B S282T
# Format: cell-based, hepatitis C virus
# Details: genotype 5a, S282T from corresponding wild-type
compound,measurement,value
"NC(=O)c1ncn([C@@H]2O[C@H](CO)[C@@H](O)[C@H]2O)n1 [Ribavirin, 1-β-D-ribofuranosyl-1H-1,2,4-triazole-3-carboxamide, reference compound]",Fold Change,0.3
